Data: paper PMC11870435 (2025)

Target: H1SI06_Head wildtype (hemagglutinin head domain of A/Solomon Islands/3/2006(H1N1)) (Influenza A virus A/Solomon …, UniProt A7Y8I1)
Test: SPR

B1: FluA20 IgG (HA trimer interface-specific antibody) (antibody, V domains shown)
VH: QVQLEESGPGLVKPSETLSLTCSVSGVSVTSDIYYWTWIRQPPGKGLEWIGYIFYNGDTNYNPSLKSRVTMSIDTSKNEFSLRLTSVTAADTAVYFCARGTEDLGYCSSGSCPNHWGQGTLVTVSS
VL: DIVMTQSPSSLSASIGDRVTITCRPSQNIRSFLNWFQHKPGKAPKLLIYAASNLQSGVPSRFSGSGSGTEFTLTIRSLQPEDFATYYCQQSYNTPPTFGQGTKVEIK
  Kd: 12 nM
